PubChem BioAssay AID504761 – Drosophila RNAi Screening Center | 2011

Test: 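Fly genes whose silencing reduces dengue virus type 2 infection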 (primary screen)
Cells: D.Mel-2 cells from Drosophila
Knock-down reagent: long dsRNA against Drosophila genes
Treatment: infection with dengue virus type 2; dose and infection time not stated
Measurement: 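Per well on two replicate plates, imaging gave the percent of cells positive for viral envelope protein, ranked by infection, and a nuclear count of cells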
Direction: infection score: higher = more virus-infected cells; cell count: higher = more cells in the well
Call rule: 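Very low infection ranking in both replicate wells (chance probability at most 0.065), then a retest showing infection dropped 1.5-fold or more at p below 0.05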
Calls: active = confirmed: knock-down lowers infection; inactive = not picked or not confirmed
In all, the deposit lists about 22,000 reagents; below is a random part of those with a known target gene and a result. Of all reagents, 116 (0.52%) got an active call. 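Calls depend on retest data that are not deposited; infection was ranked per plate without normalising between plates; the unit of the infection score is not given.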 Raw values vary from plate to plate and are shown uncorrected. Names joined by + are all predicted targets of the reagent. No sequences are given here. The record does not give: the amount of reagent, the time to read-out.

| gene | DRSC id | infection score, replicate 1 | infection score, replicate 2 | cell count, replicate 1 | cell count, replicate 2 | Call |
| --- | --- | --- | --- | --- | --- | --- |
| CG16800 | DRSC02518 | 14 | 10.6 | 6513 | 5825 | inactive |
| CG16800 | DRSC28237 | 10.7 | 6.06 | 5167 | 4933 | inactive |
| CG43317 | DRSC15000 | 10.7 | 4.27 | 4374 | 5995 | inactive |
| janA | DRSC16972 | 1.55 | 8.42 | 6462 | 2935 | inactive |
| janA | DRSC26590 | 0.96 | 2.39 | 6267 | 6019 | inactive |
| TER94 | DRSC07560 | 1.84 | 4.36 | 653 | 528 | inactive |
| TER94 | DRSC27600 | 17 | 6.6 | 5079 | 5776 | inactive |
| CG8072 | DRSC10960 | 3.67 | 2.14 | 5563 | 5457 | inactive |
| CG33491 (retired record) + CG33496 (retired record) + CG33487 (retired record) + 1 more | DRSC22969 | 4.08 | 10.3 | 5930 | 5387 | inactive |
| CG5973 | DRSC02918 | 8.57 | 15.4 | 6604 | 5903 | inactive |
| Cec-Psi1 | DRSC21956 | 5.17 | 2.23 | 6736 | 673 | inactive |
| CG8191 | DRSC20091 | 3.4 | 9.8 | 647 | 5421 | inactive |
| gcm | DRSC03536 | 26.1 | – | 6207 | 481 | inactive |
| LeuRS | DRSC00581 | 16.1 | 1.54 | 4390 | 5918 | inactive |
| Mtk | DRSC07475 | 2.34 | 20.4 | 1367 | 7091 | inactive |
| Mtk | DRSC29753 | 2.09 | 3.06 | 6362 | 6342 | inactive |
| Bub3 | DRSC14168 | 10.3 | 6.38 | 5422 | 5781 | inactive |
| Bub3 | DRSC28779 | 2.9 | 1.47 | 689 | 543 | inactive |
| CG11400 | DRSC06070 | 15.9 | 9.43 | 6120 | 6182 | inactive |
| Ror | DRSC03414 | 3.21 | 2.1 | 6483 | 6771 | inactive |
| SdhD | DRSC14215 | 2.9 | 6.64 | 5756 | 5801 | inactive |
| CG15249 | DRSC17978 | 3.29 | 5.85 | 6597 | 6773 | inactive |
| CG4701 | DRSC01952 | 0.56 | 1.64 | 6207 | 6534 | inactive |
| knrl | DRSC23245 | 3.62 | 24.7 | 7145 | 6396 | inactive |
| knrl | DRSC28310 | – | 16.5 | 367 | 2635 | inactive |
| Osi10b | DRSC12279 | 8.54 | 1.67 | 6019 | 5690 | inactive |
| CG10126 | DRSC14191 | 10.4 | 27.2 | 2803 | 5515 | inactive |
| lmd | DRSC15618 | 4.64 | 9.05 | 6333 | 6507 | inactive |
| lmd | DRSC29194 | 11.7 | 9.36 | 3275 | 1817 | inactive |
| CG9853 | DRSC12343 | 19.4 | 19.7 | 5589 | 5992 | inactive |
| CG9853 | DRSC22840 | 1.49 | 4.22 | 5887 | 6254 | inactive |
| CG9853 | DRSC28399 | 0.23 | – | 439 | 375 | inactive |
| Pde11 | DRSC02028 | 5.93 | 6.25 | 5899 | 6226 | inactive |
| Pde11 | DRSC02460 | 10.9 | 1.32 | 5375 | 6050 | inactive |
| Pde11 | DRSC26665 | 1.57 | 3.62 | 6298 | 6350 | inactive |
| PCNA | DRSC07653 | 38.4 | 35.8 | 2102 | 1962 | inactive |
| CG12902 | DRSC06217 | 2.63 | 17.4 | 6575 | 5691 | inactive |
| Cpr62Ba | DRSC08403 | 3.83 | 0.43 | 5947 | 6233 | inactive |
| CG14483 | DRSC06455 | 27.3 | 26.9 | 4922 | 6820 | inactive |
| CG12116 | DRSC17812 | 15.3 | 6.4 | 5954 | 6282 | inactive |
| Actbeta | DRSC17185 | 0.46 | 0.19 | 6124 | 5878 | inactive |
| Actbeta | DRSC17217 | 17.4 | 10.9 | 4873 | 5187 | inactive |
| beat-VI | DRSC14474 | 9.53 | 6.51 | 2749 | 1889 | inactive |
| beat-VI | DRSC14727 | 6.22 | 3.46 | 3378 | 6041 | inactive |
| Ctl2 | DRSC14423 | 1.22 | 5.37 | 6153 | 7035 | inactive |
| Ctl2 | DRSC29712 | 16.2 | 10.3 | 6203 | 6054 | inactive |
| mthl1 | DRSC19905 | 1.04 | 1.51 | 6746 | 6886 | inactive |
| CG5139 | DRSC00681 | 1.91 | 1.14 | 7072 | 6506 | inactive |
| CG5139 | DRSC26541 | 4.61 | 5.95 | 6441 | 6520 | inactive |
| Cndp2 | DRSC04873 | 3.45 | 4.57 | 5997 | 6612 | inactive |
| Taf9 | DRSC20326 | 15.5 | 6.55 | 6078 | 6215 | inactive |
| Taf9 | DRSC25903 | 12.8 | 6.05 | 5365 | 6064 | inactive |
| CG9044 | DRSC03130 | 3.12 | 16.4 | 6192 | 5331 | inactive |
| CG42700 | DRSC06293 | 21.7 | 8.81 | 5555 | 6086 | inactive |
| CG42700 | DRSC23109 | 2.77 | 6.58 | 6536 | 6660 | inactive |
| CG42700 | DRSC27344 | 14.1 | 10.9 | 5753 | 6680 | inactive |
| Shal | DRSC09625 | 0.65 | 1.34 | 6002 | 6248 | inactive |
| Shal | DRSC11283 | 1.44 | 4.77 | 6450 | 6335 | inactive |
| CG10479 | DRSC23395 | 4.9 | 7.41 | 5610 | 5598 | inactive |
| cutlet | DRSC00284 | 1.36 | 2.52 | 6302 | 6305 | inactive |
| cutlet | DRSC29552 | 19.6 | 4.41 | 5940 | 1224 | inactive |
| lectin-33A | DRSC02529 | 8.08 | 2.04 | 2821 | 6456 | inactive |
| lectin-33A | DRSC22116 | 1.23 | 1.06 | 6496 | 7051 | inactive |
| Ald1 | DRSC14109 | 1.34 | 2.99 | 4021 | 3746 | inactive |
| Ald1 | DRSC25381 | 1.58 | 1.86 | 3869 | 3716 | inactive |
| FoxL1 | DRSC08717 | 2.12 | 3.83 | 6378 | 6297 | inactive |
| FoxL1 | DRSC25265 | 4.36 | 2.62 | 6152 | 6039 | inactive |
| CG1116 | DRSC12166 | 3.51 | 3.06 | 6616 | 7117 | inactive |
| Mrp4 | DRSC14931 | 4.55 | 11.3 | 5777 | 5333 | inactive |
| Mrp4 | DRSC28151 | 8.17 | 15.1 | 6612 | 5498 | inactive |
| Cpr64Ac | DRSC08462 | 3.72 | 1.6 | 6100 | 5941 | inactive |
| Cpr64Ac | DRSC27976 | 8.53 | 4.32 | 6788 | 6291 | inactive |
| CYLD | DRSC02870 | 3.14 | 8.82 | 1943 | 4535 | inactive |
| CG3306 | DRSC10357 | 5.77 | 2.28 | 6377 | 6322 | inactive |

4 entries already listed, ordered by “cell count, replicate 2”, lowest first.
| gene | DRSC id | infection score, replicate 1 | infection score, replicate 2 | cell count, replicate 1 | cell count, replicate 2 | Call |
| --- | --- | --- | --- | --- | --- | --- |
| Ald1 | DRSC25381 | 1.58 | 1.86 | 3869 | 3716 | inactive |
| Ald1 | DRSC14109 | 1.34 | 2.99 | 4021 | 3746 | inactive |
| FoxL1 | DRSC25265 | 4.36 | 2.62 | 6152 | 6039 | inactive |
| FoxL1 | DRSC08717 | 2.12 | 3.83 | 6378 | 6297 | inactive |
